The values below come from patent US20070010489A1 (priority 2002, published 2007).

By EC50 is commonly meant the concentration at which the effect is half-maximal. Read a high EC50 as a less potent agent. For orientation: Ki means the dissociation constant of the complex between target and ligand, obtained from inhibition or displacement.

Where two headings read alike, the source gives them in different places. Where only a bound is given, the exact number is not on record here.

Experiment [1] deals with wild-type HIV-1 strain IIIB. The experiment is described as follows: Anti-HIV-1 Cell Culture Assay (EC50). It counts as cell-based.
Experiment [2] concerns the target recombinant HIV-1 protease (Human immunodeficiency virus type 1 group M subtype B, UniProt P04585). The experiment is described as follows: HIV-1 Protease Enzyme Assay (Ki). It counts as biochemical.

In turn, `Cc1c(O)cccc1C(=O)N[C@@H](Cc1ccc(OCP(=O)(OCc2ccccc2)OCc2ccccc2)cc1)[C@H](O)CN(CC(C)C)S(=O)(=O)c1ccc(N)cc1` displayed an EC50 in experiment [1] of 50 to 500 nM. Moreover, in experiment [2], the Ki was 0.01 to 0.1 nM.

With `CCCCOC(=O)[C@H](C)NP(=O)(COc1ccc(S(=O)(=O)N(CC(C)C)C[C@@H](O)[C@H](Cc2ccccc2)NC(=O)O[C@H]2CO[C@H]3OCC[C@H]32)cc1)N[C@@H](C)C(=O)OCCCC`, the EC50 in experiment [1] was in the range of 50 to 500 nM.

On to `COc1ccc(S(=O)(=O)N(CC(C)C)C[C@@H](O)[C@H](Cc2cc[n+]([O-])cc2)NC(=O)O[C@H]2CO[C@H]3OCC[C@H]32)cc1`, for which, in experiment [2], the Ki was in the range of 0.01 to 0.1 nM.

Consider `O=C1N(Cc2ccc3[nH]ncc3c2)[C@H](Cc2ccccc2)[C@H](O)[C@@H](O)[C@@H](Cc2ccccc2)N1Cc1ccc2[nH]ncc2c1`, for which the Ki in experiment [2] (Enzymatic assay) was below 0.01 nM.

`O=C1N(Cc2ccc3[nH]ncc3c2)[C@H](Cc2ccc(O)cc2)[C@H](O)[C@@H](O)[C@@H](Cc2ccc(O)cc2)N1Cc1ccc2[nH]ncc2c1`: the Ki in experiment [2] (Enzymatic assay) turned out to be 0.012 nM.
